Results from patent EP0230052B1, “Immunoamplifiers and related Compositions” (Gottlieb, Arthur A., priority 1985, dated 1987).

System: DH skin reaction to tetanus toxoid
Conditions: in vivo

With Tyrosylglycylglycine [TGG] the “skin reaction without antigen” value was “No reaction”.
